Measurements from patent US20210338708A1, “METHOD FOR TREATMENT OF CORONAVIRUS INFECTION” (Renibus Therapeutics, Inc., priority 2020, published 2021).

System: SARS-CoV-2
Experiment: Reduction of virus-induced cytopathic effect (visual and neutral red) within secondary assay
Assay type: cell-based, SARS-CoV-2 USA_WA1/2020
Procedure: Confluent or near-confluent cell culture monolayers of Vero 76 cells are prepared in 96-well disposable microplates the day before testing. Cells are maintained in minimum essential medium (MEM) supplemented with 5% FBS. For antiviral assays the same medium is used but with FBS reduced to 2% and supplemented with 50-μg/ml gentamicin. Compounds are dissolved in DMSO, saline or the diluent requested by the submitter. […] The test compound is prepared at four serial log 10 concentrations, usually 0.1, 1.0, 10, and […] or μM (per sponsor preference). Lower concentrations are used when insufficient compound is supplied. Five microwells are used per dilution: three for infected cultures and two for uninfected toxicity cultures. Controls for the experiment consist of six microwells that are infected and not treated (virus controls) and six that are untreated and uninfected (cell controls) on every plate. A known active drug is tested in parallel as a positive control drug using the same method as is applied for test compounds. […]
Growth media is removed from the cells and the test compound is applied in 0.1 ml volume to wells at 2× concentration. […] The dye content in each well is quantified using a spectrophotometer at 540 nm wavelength. […]
Active compounds are further tested in a confirmatory assay. […] The incorporated dye content is quantified as described above to generate the EC50 and CC50 values.

## C=CC1=C(C)c2cc3[n-]c(cc4[n-]c(cc5nc(cc1n2)C(C)=C5C=C)c(C)c4CCC(=O)O)c(CCC(=O)O)c3C.[Sn+2] [RBT-9, Stannous protoporphyrin]
CC50/EC50, neutral red
  NR SI: 26
CC50/EC50, visual
  VIS SI: 18
